Test results as given in patent US8557565B2, “Degradation of polycyclic aromatic hydrocarbons to render them available for biodegradation” (priority 1999, dated 2013).

Assay: Biological incubation of ozonated column effluent, species identified by GC/MS
Design: key: •: found; ◯: not found
Settings: pyrene column effluent; for found in ozonated effluent, 0 day: biological incubation 0 day; for found in ozonated effluent, 5 days: biological incubation 5 days; for found in ozonated effluent, 10 days: biological incubation 10 days; for found in ozonated effluent, 15 days: biological incubation 15 days; for found in ozonated effluent, 20 days: biological incubation 20 days

For `CCCCCCCCCCCCCCCCCCCCCCCCC` [pentacosane (20), pentacosane], the “found in ozonated effluent, 0 day” value was “•”, the “found in ozonated effluent, 5 days” value was “•” and the “found in ozonated effluent, 10 days” value was “•”. For the same compound, the “found in ozonated effluent, 15 days” value was “•” and the “found in ozonated effluent, 20 days” value was “•”.

For `CCCCCCCCCCCCCCCC` [hexadecane (19), hexadecane], the “found in ozonated effluent, 0 day” value was “•”, the “found in ozonated effluent, 5 days” value was “◯” and the “found in ozonated effluent, 10 days” value was “◯”. For the same compound, the “found in ozonated effluent, 15 days” value was “◯” and the “found in ozonated effluent, 20 days” value was “◯”.

For `CCCCCCCCCCCCCC` [tetradecane (17), tetradecane], the “found in ozonated effluent, 0 day” value was “•”, the “found in ozonated effluent, 5 days” value was “•” and the “found in ozonated effluent, 10 days” value was “•”. The “found in ozonated effluent, 15 days” value was “•” and the “found in ozonated effluent, 20 days” value was “•”.

With `O=Cc1cccc(C=O)c1-c1c(C=O)cccc1C=O` [2,2′,6,6′-biphenyltetraaldehyde (3), 2,2′,6,6′-biphenyltetraaldehyde] the “found in ozonated effluent, 0 day” value was “•”, the “found in ozonated effluent, 5 days” value was “◯” and the “found in ozonated effluent, 10 days” value was “◯”. The “found in ozonated effluent, 15 days” value was “◯” and the “found in ozonated effluent, 20 days” value was “◯”.

For `CCCCCCCCCCCCCCCCCCCCCCCCCC` [hexacosane (28), hexacosane], the “found in ozonated effluent, 0 day” value was “•”, the “found in ozonated effluent, 5 days” value was “•” and the “found in ozonated effluent, 10 days” value was “•”. For the same compound, the “found in ozonated effluent, 15 days” value was “•” and the “found in ozonated effluent, 20 days” value was “•”.

For `Cc1cc(C(C)(C)C)c(O)c(C(C)(C)C)c1` [butylated hydroxytoluene (11), butylated hydroxytoluene], the “found in ozonated effluent, 0 day” value was “•”, the “found in ozonated effluent, 5 days” value was “•” and the “found in ozonated effluent, 10 days” value was “•”. For the same compound, the “found in ozonated effluent, 15 days” value was “•” and the “found in ozonated effluent, 20 days” value was “•”.

For `CCCCCCCCCCCCCCCCCCCCCCC` [tricosane (23), tricosane], the “found in ozonated effluent, 0 day” value was “•”, the “found in ozonated effluent, 5 days” value was “•” and the “found in ozonated effluent, 10 days” value was “•”. For the same compound, the “found in ozonated effluent, 15 days” value was “•” and the “found in ozonated effluent, 20 days” value was “•”.

For `CCCCCCCCCCCCCCCCCCCCCC` [docosane (22), docosane], the “found in ozonated effluent, 0 day” value was “•”, the “found in ozonated effluent, 5 days” value was “◯” and the “found in ozonated effluent, 10 days” value was “◯”. For the same compound, the “found in ozonated effluent, 15 days” value was “◯” and the “found in ozonated effluent, 20 days” value was “◯”.

For `CCCCCCCCCCCCCCCCCCCCC` [henicosane (21), henicosane], the “found in ozonated effluent, 0 day” value was “•”, the “found in ozonated effluent, 5 days” value was “◯” and the “found in ozonated effluent, 10 days” value was “◯”. For the same compound, the “found in ozonated effluent, 15 days” value was “◯” and the “found in ozonated effluent, 20 days” value was “◯”.

With `CCCCOCCOCCO` [ethanol, 2-[2-butoxyethoxy]-(14), ethanol, 2-[2-butoxyethoxy]-] the “found in ozonated effluent, 0 day” value was “◯”, the “found in ozonated effluent, 5 days” value was “◯” and the “found in ozonated effluent, 10 days” value was “◯”. For the same compound, the “found in ozonated effluent, 15 days” value was “◯” and the “found in ozonated effluent, 20 days” value was “◯”.

With `CCCCCCCC(CCC)CCCCC` (centres unmarked) [6-propyl tridecane (25), 6-propyl tridecane] the “found in ozonated effluent, 0 day” value was “•”, the “found in ozonated effluent, 5 days” value was “•” and the “found in ozonated effluent, 10 days” value was “•”. The “found in ozonated effluent, 15 days” value was “•” and the “found in ozonated effluent, 20 days” value was “•”.

For `CC(C)CCCCCOC(=O)c1ccccc1C(=O)OCCCCCC(C)C` [1,2-benzenedicarboxylic acid, diisooctyl], the “found in ozonated effluent, 0 day” value was “•”, the “found in ozonated effluent, 5 days” value was “•” and the “found in ozonated effluent, 10 days” value was “•”. The “found in ozonated effluent, 15 days” value was “•” and the “found in ozonated effluent, 20 days” value was “•”.

In the case of `C1CCCCCCCCCCC1` [cyclododecane (29), cyclododecane], the “found in ozonated effluent, 0 day” value was “•”, the “found in ozonated effluent, 5 days” value was “•” and the “found in ozonated effluent, 10 days” value was “•”. The “found in ozonated effluent, 15 days” value was “•” and the “found in ozonated effluent, 20 days” value was “•”.

For `CCCCCCCCCCCCCCCC(=O)O` [hexadecanoic acid (16), hexadecanoic acid], the “found in ozonated effluent, 0 day” value was “•”, the “found in ozonated effluent, 5 days” value was “◯” and the “found in ozonated effluent, 10 days” value was “◯”. The “found in ozonated effluent, 15 days” value was “◯” and the “found in ozonated effluent, 20 days” value was “◯”.

For `CCCCOC(=O)C(C)C` [propanoic acid, 2-methyl-, butyl ester], the “found in ozonated effluent, 0 day” value was “•”, the “found in ozonated effluent, 5 days” value was “◯” and the “found in ozonated effluent, 10 days” value was “◯”. For the same compound, the “found in ozonated effluent, 15 days” value was “◯” and the “found in ozonated effluent, 20 days” value was “◯”.

For `CCCCCCCCCCCCCCCCCCCCCCCC` [tetracosane (24), tetracosane], the “found in ozonated effluent, 0 day” value was “•”, the “found in ozonated effluent, 5 days” value was “•” and the “found in ozonated effluent, 10 days” value was “•”. The “found in ozonated effluent, 15 days” value was “•” and the “found in ozonated effluent, 20 days” value was “•”.
